Reference: publication PMC6598531, “Appraisal of anti-protozoan activity of nitroaromatic benzenesulfonamides inhibiting carbonic anhydrases from Trypanosoma cruzi and Leishmania donovani” (Journal of Enzyme Inhibition and Medicinal Chemistry, 2019)

Amino acid sequences for entries named in this document (tags omitted). Residues count along the entry.
UniProt A4HSV2, 1-306: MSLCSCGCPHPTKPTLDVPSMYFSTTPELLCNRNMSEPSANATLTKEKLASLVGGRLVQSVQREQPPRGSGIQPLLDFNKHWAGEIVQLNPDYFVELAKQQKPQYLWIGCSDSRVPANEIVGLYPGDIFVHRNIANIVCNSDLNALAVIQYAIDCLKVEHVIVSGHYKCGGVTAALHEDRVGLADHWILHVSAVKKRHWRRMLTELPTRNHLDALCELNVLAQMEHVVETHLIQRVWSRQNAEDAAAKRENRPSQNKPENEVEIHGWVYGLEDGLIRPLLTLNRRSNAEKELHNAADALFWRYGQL
UniProt Q4DKE0, 32-522 limits assumed: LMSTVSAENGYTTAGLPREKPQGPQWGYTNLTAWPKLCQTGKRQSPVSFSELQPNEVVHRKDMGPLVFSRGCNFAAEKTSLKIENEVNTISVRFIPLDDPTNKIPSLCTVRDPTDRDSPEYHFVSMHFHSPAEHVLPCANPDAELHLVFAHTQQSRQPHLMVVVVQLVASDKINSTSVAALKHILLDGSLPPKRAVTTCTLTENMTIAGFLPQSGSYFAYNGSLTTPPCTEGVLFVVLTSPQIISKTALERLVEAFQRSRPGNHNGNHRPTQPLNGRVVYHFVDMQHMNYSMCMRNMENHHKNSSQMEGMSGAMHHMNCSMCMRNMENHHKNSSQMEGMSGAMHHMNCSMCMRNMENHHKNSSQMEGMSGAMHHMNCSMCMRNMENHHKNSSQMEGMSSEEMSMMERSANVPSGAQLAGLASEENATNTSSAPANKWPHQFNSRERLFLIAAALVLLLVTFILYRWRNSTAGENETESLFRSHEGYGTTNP

Experiments:
L. infantum = test: growth inhibition of L. infantum promastigotes (resazurin); assay type: cell-based, Leishmania infantum; settings: 48 h, 28 °C
T. cruzi Dm 28c = test: growth inhibition of T. cruzi Dm28c epimastigotes (resazurin); assay type: cell-based, Trypanosoma cruzi; settings: 48 h
RAW 264.7 macrophages = test: cytotoxicity assay in macrophages (MTT); settings: 48 h
LdcCA = LdcCA (Leishmania infantum, UniProt A4HSV2); test: stopped flow CO2 hydrase assay, LdcCA inhibition; assay type: biochemical
T. cruzi Y = test: growth inhibition of T. cruzi Y epimastigotes (resazurin); assay type: cell-based, Trypanosoma cruzi; settings: 48 h, 28 °C
TcCA = TcCA (Trypanosoma cruzi, UniProt Q4DKE0); test: stopped flow CO2 hydrase assay, TcCA inhibition; assay type: biochemical
L. amazonensis = test: growth inhibition of L. amazonensis promastigotes (resazurin); assay type: cell-based, Leishmania amazonensis; settings: 48 h, 28 °C

NS(=O)(=O)c1cc([N+](=O)[O-])c(O)c([N+](=O)[O-])c1
MIC L. infantum (L. infantum): >400 µM
MIC T. cruzi Dm 28c (T. cruzi Dm 28c): >256 µM
CC50 (RAW 264.7 macrophages): 100000 nM
Ki (LdcCA; read-out: KI LdCA, stopped flow CO2 hydrase assay, mean from three assays): 340 nM
SI (KI1/KI2) CA I/LdcCA (LdcCA; selectivity index, KI CA I / KI LdcCA): 12.8
SI (KI1/KI2) CA II/LdcCA (LdcCA; selectivity index, KI CA II / KI LdcCA): 0.5
MIC T. cruzi Y (T. cruzi Y): >256 µM
Ki (TcCA; read-out: KI TcCA, stopped flow CO2 hydrase assay, mean from three assays): 160 nM
SI (KI1/KI2) CA I/TcCA (TcCA; selectivity index, KI CA I / KI TcCA): 27.2
SI (KI1/KI2) CA II/TcCA (TcCA; selectivity index, KI CA II / KI TcCA): 1.1
MIC L. amazonensis (L. amazonensis): >400 µM
